Assay results: ChEMBL document CHEMBL1128695, “Synthesis and antiviral activity of 8-aza analogs of chiral [2-(phosphonomethoxy) propyl]guanines” (J Med Chem, 1995)

Tests used:
[1] = Selectivity Index measured as the ratio of CC50 to that of EC50(HIV-2) values.; format: functional
How it was run: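 HIV-2 ROD (100 CCID50, MOI 0.01) infected 1×10^4 MT-4 cells per well in RPMI/10% FCS containing compound dilutions, made from a 100 mg/mL DMSO stock. After 8 days at 37 °C, MTT read viability. The EC50 gives 50% protection against CPE. The CC50 comes from parallel mock-infected MT-4 cultures by MTT over 4 days. The index is the CC50/EC50 ratio.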

[2] = Selectivity Index measured as the ratio of CC50 to that of EC50(HIV-1) values.; format: functional
How it was run: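 HIV-1 IIIB (100 CCID50, MOI 0.01) was added to 1×10^4 MT-4 cells per well in RPMI/10% FCS with serial compound dilutions, made from a 100 mg/mL DMSO stock. After 4 days at 37 °C, viable cells were counted by MTT. The EC50 is 50% protection from virus-induced CPE. The CC50 is a 50% viability loss in mock-infected MT-4 cells, run in parallel for 4 days. SI = CC50/EC50.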

## Cc1cn([C@H]2C[C@H](N=[N+]=[N-])[C@@H](CO)O2)c(=O)[nH]c1=O [ZIDOVUDINE]
[1]
  Selectivity index: > 500
[2]
  Selectivity index: > 2000
